Measured values from several laboratories, pooled; numbers as filed in NIAID ChemDB.

Shared fields: growth or infection tests; agent: HIV-1; measure: EC50

An empty or dashed field is not shown. Rows are shuffled and stem from different studies. a–b is a range or a potency band. ECn: concentration that inhibits the pathogen or its effect by n%.

SMILES,strain or isolate,mutations,cells,method,setting,result
Cc1ccc(CNC(=O)c2nc3n(c(=O)c2O)C(C)CCCC3N(C)C(=O)C(=O)N(C)C)cc1F,,Y143R,HeLa P4-2,single cycle,,0.001 µM
CCCCOc1nc(N)c2c(n1)N(Cc1cccc(CN3CCCC3)c1)CC(=O)N2,NL4-3,,CD4+ T-cell,luciferase / reporter gene / luminescence,pseudotyped,>7 µM
C/C=C/CSc1cc(NC(=S)c2ccsc2C)ccc1Cl,4xAZT(RT-D67N K70R T215Y K219Q),RT-D67N K70R T215Y K219Q,CEM + CEM-SS,p24,,0.04 µM
O=C(NCc1ccc(Cl)c(Cl)c1)c1nc2n(CC(=O)N3CCOCC3)cc(CN3CCOCC3)n2c(=O)c1O,,QHGS,HEK 293,luciferase,,0.5–1 µM
C[C@@H]1CCO[C@H]2Cn3cc(C(=O)NCc4ccc(F)cc4F)c(=O)c(O)c3C(=O)N12,NL4-3,M184V,TZM-bl,luciferase,,0.0011 µM
CC(C)=CCOc1cc(NC(=S)c2ccsc2C)ccc1Cl,NL4-3 (RT K101E),RT-K101E,CEM + CEM-SS,cytopathic effect / XTT,,0.006 µM
CC1CCN(C(=O)Cn2ccn3c(=O)c(O)c(-c4ncc(Cc5ccc(F)cc5)s4)nc23)CC1,,QHGS,HEK 293,luciferase,,0.5–1 µM
CC(=O)OCC1OC(SC(C)=O)C(OC(C)=O)C(OC(C)=O)C1OC(C)=O,,,CEM MT-2 + CEM,XTT,,>100 µg/mL
C[C@H]1CN(C(=O)Cn2ccn3c(=O)c(O)c(-c4ncc(Cc5ccc(F)cc5)s4)nc23)C[C@H](C)O1,,Q148H/G140S,HEK 293,luciferase,,0.1–1 µM
COc1ccc(CN2C[C@H](Cc3ccccc3)N(C[C@@H](O)C[C@@H](Cc3ccccc3)C(=O)N[C@H]3c4ccccc4C[C@H]3O)C2=O)cc1,,,MT-4 + MT4,,,2.2–10 µM
O=C(O)C(=O)/C=C(\O)c1cc(Cc2ccc(F)cc2F)cn(Cc2ccc(F)cc2)c1=O,,,MAGI,,,0.6 µM
CC(=O)c1ccc(C)cc1NC(C(N)=O)c1c(Cl)cccc1Cl,UC10-resistant (RT Y181C K101E),RT-Y181C K101E,CEM + CEM-SS,cytopathic effect / XTT,,>1 µM
C[C@H]1CN(C(=O)Cn2ccn3c(=O)c(O)c(-c4ncc(Cc5ccc(Cl)c(Cl)c5)s4)nc23)C[C@H](C)O1,,Q148H/G140S,HEK 293,luciferase,,0.1–1 µM
CCCCCCCCCCCCCCC(=O)Oc1ccc(OP(=O)(OCc2ccc(OC(=O)CC(C)C)cc2)OP(=O)(O)OP(=O)(O)OC[C@@H]2C=C[C@H](n3cc(C)c(=O)[nH]c3=O)O2)cc1,IIIB,,CEM/TK-,syncytia / visual reading,,0.39 µM
CCCc1c(OC2CCCCC2)c2cc(Cl)ccc2[nH]c1=O,NNRTI-resistant (RT K103N Y181C),RT-K103N Y181C,HeLa + HeLa-MAGI,β-galactosidase,,>2 µM
Nc1ccn([C@@H]2C=C(F)[C@H](CO)O2)c(=O)n1,LAI,,PBMC,PCR,,<0.92 µM
COC1OC(CSC2OC(CO)C(O)C(O)C2O)C(O)C(O)C1O,,,CEM MT-2 + CEM,XTT,,>100 µg/mL
O=C(O)C(=O)/C=C(\O)c1cc(Cc2ccccc2)cn(Cc2cccc(F)c2F)c1=O,,,MAGI,,,0.9 µM
Nc1ncnc2c1ncn2[C@H]1CO[C@@H](CO)C1,IIIB,,ATH8,cytopathic effect,,10 µM
Cc1cc(CNC(=O)c2nc3n(c(=O)c2O)CC(C)(C)CC[C@@H]3N(C)C(=O)C(=O)N(C)C)ccc1F,,G140S/Q148H,HeLa P4-2,single cycle,,0.034 µM
CC1CC(C)CN(C(=O)Cn2cc(CS(C)(=O)=O)n3c(=O)c(O)c(C(=O)NCc4ccc(F)cc4S(=O)(=O)N(C)C)nc23)C1,,QHGS,HEK 293,luciferase,,<0.5 µM
OC[C@H]1C[C@@H](n2cnc3c(=S)nc[nH]c32)CO1,IIIB,,ATH8,cytopathic effect,,>100 µM
CN(C)S(=O)(=O)c1cc(F)ccc1CNC(=O)c1nc2n(CC(=O)N3CCCCC3)cc(N3CCCS3(=O)=O)n2c(=O)c1O,,QHGS,HEK 293,luciferase,,<0.5 µM
Cc1cc(CNC(=O)c2nc3n(c(=O)c2O)[C@@H](C)COC[C@H]3N(C)C(=O)C(=O)N(C)C)ccc1F,,Y143R,HeLa P4-2,single cycle,,0.002 µM
CCCCCCCCCCCCCCC(=O)Oc1ccc(COP(=O)(Oc2ccc(OC(=O)CCCC(=O)OCCOCCOCCOC)cc2)OP(=O)(O)OP(=O)(O)OC[C@@H]2C=C[C@H](n3cc(C)c(=O)[nH]c3=O)O2)cc1,IIIB,,CEM/TK-,syncytia / visual reading,,2 µM
CCCc1cc(=O)oc2c3c(c4c(c12)OC(C)(C)CC4)O[C@@H](C)[C@H](C)[C@@H]3O,UC10-resistant (RT K103N),RT-K103N,CEM + CEM-SS,XTT,,>20 µM
Cc1cc(CNC(=O)c2nc3n(c(=O)c2O)[C@H](C)COC[C@@H]3N(C)C(=O)C(=O)N(C)C)ccc1F,,Q148R,HeLa P4-2,single cycle,,0.003 µM
O=C(NCc1c(F)cc(F)cc1F)c1cn2c(c(O)c1=O)C(=O)N1[C@H]3CC[C@H](C3)O[C@@H]1C2,,,HOS,luciferase,,<0.004 µM
O=C(N[C@H]1c2ccccc2C[C@H]1O)[C@H](Cc1ccccc1)C[C@H](O)CN1C(=O)N(Cc2ccccc2)C[C@@H]1Cc1ccccc1,,,MT-4 + MT4,,,1.4 µM
Nc1c(C(=O)NCc2ccc(F)cc2F)c(=O)n(O)c2ncc(CCCCCCO)cc12,,AGT (GGGAGT),HOS,luciferase,,<0.001 µM
Cc1c(OCC2CCC2)c2cc(F)ccc2[nH]c1=O,NNRTI-resistant (RT K103N),RT-K103N,HeLa + HeLa-MAGI,β-galactosidase,,>2 µM
OC[C@H]1C[C@@H](n2cnc3c(F)ncnc32)CO1,IIIB,,ATH8,cytopathic effect,,>100 µM
CC(C)=CCOc1cc(NC(=S)c2ccoc2C)ccc1Cl,Calanolide A-resistant (RT T139I),RT-T139I,CEM + CEM-SS,cytopathic effect / XTT,,0.04 µM
O=C(O)C(=O)/C=C(\O)c1cc(Cc2ccc(F)cc2)cn(Cc2cccc(F)c2F)c1=O,,,MAGI,,,0.7 µM
CO[C@H]1OC(CO[C@@H]2OC(COC(C)=O)[C@@H](OC(C)=O)[C@@H](OC(C)=O)C2S[C@@H]2OC(COC(C)=O)[C@@H](OC(C)=O)[C@@H](OC(C)=O)C2OC(C)=O)[C@@H](OC(C)=O)[C@@H](OC(C)=O)C1OC(C)=O,,,CEM MT-2 + CEM,XTT,,>100 µg/mL
CCCCCCCCCCCCCCC(=O)Oc1ccc(OP(=O)(OCc2ccc(OC(=O)CCCCCC)cc2)OP(=O)(O)OP(=O)(O)OC[C@@H]2C=C[C@H](n3cc(C)c(=O)[nH]c3=O)O2)cc1,IIIB,,CEM/TK-,syncytia / visual reading,,0.74 µM
O=C(O)C(=O)/C=C(\O)c1cc(Cc2cccc(Cl)c2)cn(Cc2ccc(F)cc2)c1=O,,,MAGI,,,1.4 µM
Nc1nc2c(ncn2[C@H]2CC[C@@H](CO)O2)c(=O)[nH]1,IIIB,,ATH8,cytopathic effect,,7.5 µM
CSCc1cn(CC(=O)N2CC(C)CC(C)C2)c2nc(C(=O)NCc3ccc(F)cc3S(=O)(=O)N(C)C)c(O)c(=O)n12,,QHGS,HEK 293,luciferase,,<0.5 µM
COc1cc2c(cc1Cc1cccc(Cl)c1F)c(=O)c(C(=O)O)cn2[C@H](CO)C(C)C,,AGC (GGGAGC),HOS,luciferase,,<0.003 µM
O=S(=O)(Cc1ccccc1I)c1cccc[n+]1[O-],IIIB,,CEM/MOLT-4 + CEM,syncytia,,>20 µg/mL
Nc1c(C(=O)NCc2ccc(F)cc2F)c(=O)n(O)c2ncc(CCCCCO)cc12,,AGC (GGGAGC),HOS,luciferase,,<0.003 µM
C[C@H]1[C@H](O)[C@@H](C)/C=C/C=C/C=C/C=C/C=C/C=C/C=C/[C@H](O[C@@H]2O[C@H](C)[C@@H](O)[C@H](N)[C@@H]2O)C[C@@H]2O[C@](O)(C[C@@H](O)C[C@@H](O)CC[C@H](O)[C@@H](O)C[C@@H](O)CC(=O)O[C@H]1C)C[C@H](O)[C@H]2C(=O)O,G3 CLADE G R5 (NSI),,PBMC,p24 / RT activity,,0.8 µM
CS(=O)(=O)c1ccc(CN2C[C@H](Cc3ccccc3)N(C[C@@H](O)C[C@@H](Cc3ccccc3)C(=O)N[C@H]3c4ccccc4C[C@H]3O)C2=O)cc1,,,MT-4 + MT4,,,2.2–10 µM
CCN(C(=O)C(=O)N(C)C)[C@@H]1CC[C@H](OC)Cn2c1nc(C(=O)NCc1ccc(F)cc1)c(O)c2=O,,Y143R,HeLa P4-2,single cycle,,0.003 µM
CC(=O)OCC1OC(SC2C(OCc3ccccc3)OC(COC(C)=O)C(OC(C)=O)C2OC(C)=O)C(OC(C)=O)C(OC(C)=O)C1OC(C)=O,,,CEM MT-2 + CEM,XTT,,>100 µg/mL
Nc1nc(F)c2ncn([C@H]3CO[C@@H](CO)C3)c2n1,IIIB,,ATH8,cytopathic effect,,>100 µM
CO[C@]1(C)CC[C@@H](N(C)C(=O)C(=O)N(C)C)c2nc(C(=O)NCc3ccc(F)c(C)c3)c(O)c(=O)n2C1,,E92Q,HeLa P4-2,single cycle,,0.001 µM